Measurements published in article PMC2946308, “Sialic acid transport and catabolism are cooperatively regulated by SiaR and CRP in nontypeable Haemophilus influenzae” (BMC Microbiology, 2010).

System: SiaR + CRP
Test: EMSA
Details: 100 uM cAMP, 1 uM each, higher shift, simultaneous binding; 150 mM KCl, 0.1 mM DTT, 0.1 mM EDTA, 10 mM Tris pH 7.4, 15 nM probe, room temperature 20 min; 6% gel, 0.5x TBE; recombinant protein; label: none (SYBR Green stain); probe letters rebuilt from the primers and the genome

Sequence: ACACCCCTCATTTAAATCTGAATAAATCACTTTAAAATTAATTTAATCCACATAAAACAATCTTTTATAAATTGTAATATGCTTATATTTTCATCATTTAACATTATTATATGAAAAAGAAATGCCATTTTAAAGAATATTTTTGAAGTGTTTTTTCACAAATGTGATCAACTTCTCATTTTTGAAATAAAACTCGTAAAACTATTTTAAATTTGTTTTTTTACTCTTAGAATTGCTCTCGAATCCTATTTTGGGGG (double strand) [nan-siaPT intergenic region probe]
- binding result: binds

Construct, isoform or probe ends are uncertain for at least one entry.
